According to patent publication US20240122867A1, “CORONAL PROTEIN-COATED NANOPARTICLES AND USES THEREOF” (UNIVERSITY OF CENTRAL FLORIDA RESEARCH FOUNDATION, INC., priority 2021, published 2024):

System: coronal proteins on NPs
Set-up: species or system mouse
Details: for V5 Sera_Nanoparticles Quantitative Value (Normalized Total Spectra): HBPE-NPs incubated 1 h with IAV day 5 (V5) mouse sera, 20:1 NP:sera, centrifuged and washed; for V5 Sera Alone (Control) Quantitative Value (Normalized Total Spectra): IAV day 5 (V5) mouse sera alone, no NPs (sera-only control)

Molecule	V5 Sera_Nanoparticles Quantitative Value (Normalized Total Spectra)	V5 Sera Alone (Control) Quantitative Value (Normalized Total Spectra)
Metalloproteinase inhibitor 3 (protein, UniProt P39876 24-211, looked up) Metalloproteinase inhibitor 3: CTCSPSHPQDAFCNSDIVIRAKVVGKKLVKEGPFGTLVYTIKQMKMYRGFSKMPHVQYIHTEASESLCGLKLEVNKYQYLLTGRVYEGKMYTGLCNFVERWDHLTLSQRKGLNYRYHLGCNCKIKSCYYLPCFVTSKNECLWTDMLSNFGYPGYQSKHYACIRQKGGYCSWYRGWAPPDKSISNATDP	1.0879	0
Complement C1r-A subcomponent (protein, UniProt Q8CG16 17-707, looked up) Complement C1r-A subcomponent: SIYLPQKLYGEVTSPLYPKPYPSDLETTTVITVPMGYRVKLVFWQFDVEPSEGCFYDYVKISADKQTLGRFCGQLDSPLGNPPGSKEFMSQGNKMLLTFHTDFSNEENGTIMFYKGFLAYYQAVDLDECASQPNSVEEGLQPRCQHLCHNYVGGYFCSCHPGYELQKDGQSCQAECSSELYTEPSGYVSSLEYPQPYPPDLRCNYSIRVERGLTVHLKFLDPFEIDDHQQVHCPYDQLQIYANGKNLGEFCGKQRPPDLDTSSNAVDLLFFTDESGDSRGWKLHYTTETIKCPQPKALDEFTIIQDPQPQYQFRDYFIVTCKQGYQLMEGNQALLSFTAVCQNDGTWHRAMPRCKIKNCGQPQSLSNGDFRYITTKGVTTYEASIQYHCHEPYYKMLTRAGSSESMRGIYTCTAQGIWKNEEEGEKMPRCLPVCGKPVNPVTQKERIIRGQPARPGNFPWQAFTTTHGRGGGALLGDRWILTAAHTIYPKHHNKENDNANPKMLVFLGHTNVEQIKKLGHHPVRRVIIHPDYRQDEPNNFEGDIALLELENSVTLGPELLPICLPDNETFYGQGLMGYVSGFGITEDKLAFDLRFVRLPVADSEACQRWLQTKKDTSPFSQNMFCSGDPAVQQDACQGDSGGVFAVRDRNRDIWVATGIVSWGIGCGEGYGFYTKVLNYVDWIKKEMGDEN	1.0879	0
Hepatocyte growth factor-like protein (protein, UniProt P26928 19-716, looked up) Hepatocyte growth factor-like …: QRSPLNDFQLFRGTELRNLLHTAVPGPWQEDVADAEECARRCGPLLDCRAFHYNMSSHGCQLLPWTQHSLHTQLYHSSLCHLFQKKDYVRTCIMDNGVSYRGTVARTAGGLPCQAWSRRFPNDHKYTPTPKNGLEENFCRNPDGDPRGPWCYTTNRSVRFQSCGIKTCREAVCVLCNGEDYRGEVDVTESGRECQRWDLQHPHSHPFQPEKFLDKDLKDNYCRNPDGSERPWCYTTDPNVEREFCDLPSCGPNLPPTVKGSKSQRRNKGKALNCFRGKGEDYRGTTNTTSAGVPCQRWDAQSPHQHRFVPEKYACKDLRENFCRNPDGSEAPWCFTSRPGLRMAFCHQIPRCTEELVPEGCYHGSGEQYRGSVSKTRKGVQCQHWSSETPHKPQFTPTSAPQAGLEANFCRNPDGDSHGPWCYTLDPDILFDYCALQRCDDDQPPSILDPPDQVVFEKCGKRVDKSNKLRVVGGHPGNSPWTVSLRNRQGQHFCGGSLVKEQWVLTARQCIWSCHEPLTGYEVWLGTINQNPQPGEANLQRVPVAKAVCGPAGSQLVLLKLERPVILNHHVALICLPPEQYVVPPGTKCEIAGWGESIGTSNNTVLHVASMNVISNQECNTKYRGHIQESEICTQGLVVPVGACEGDYGGPLACYTHDCWVLQGLIIPNRVCARPRWPAIFTRVSVFVDWINKVMQLE	1.0879	0
Lysozyme C-2 (protein, UniProt P08905 19-148, looked up) Lysozyme C-2: KVYERCEFARTLKRNGMAGYYGVSLADWVCLAQHESNYNTRATNYNRGDQSTDYGIFQINSRYWCNDGKTPRAVNACGINCSALLQDDITAAIQCAKRVVRDPQGIRAWVAWRAHCQNRDLSQYIRNCGV	1.0879	0
Murinoglobulin-2 (protein, UniProt P28666 28-1451, looked up) Murinoglobulin-2: DSKYMVLVPSQLYTETPEKICLHLYHLNETVTVTASLVSQTGRRNLFDELVVDKDLFQCVSFIIPTLNSPDEEEFLYVDIKGPTHEFSKRNAVLVKNKESVVFVQTDKPVYKPGQSVKFRVVSMDKTLRPLNELLPLAYIEDPKKNRIMQWRDIKTENGLKQMSFSLAAEPIQGPYKIVVHKQSGVKEEHSFTVMEFVLPRFNVDLKVPNAISVNDEVLQVTVCGKYTYGKPVPGQVKISICHETEAGCKEVNSKLDNNGCSTQEVNITELQSKKRNYEVQLFHVNATVTEEGTGLEFNGYGTTKIERITNKLIFLKADSHFRHGIPFFVKVRLVDIKGDPIPNERVFIKAQVLGYTSATTTDQHGLAKFSIDTAGFSGSSLHIKVNHKGKDSCYFFYCMEERYASAEHVAYAVYSLSKSYIYLVKETSSILPCNQIHTVQAHFILKGDLGVLKELVFYYLVMAQGSIIQTGNHTHQVEPGEAPVKGNFDLEIPVEFSMAPMAKMLIYTILPDGEVIADSVNFEIEKCLRNKVDLSFSSSQSLPASQTRLQVTASPQSLCGLRAVDQSVLLLKPEDELSPSWIYNLPGMQHNKFIPSSSLSEDREDCILYSSWVAEKHTDWVPHGREKDVYRYVEDMDLKAFTNLKIKLPKICFDSAPMSGPRGKFDLAFSSEVSGTLQKGSSKRPQPEEPPREDPPPKDPLAETIRKYFPETWVWDIVTVNSTGVAEVEMTVPDTITEWKAGALCLSNDTGLGLSSVVPLQAFQPFFVEVSLPYSVVRGEAFMLKATVMNYLPTSMRMSVQLEASPDFTAVPVGDDHDSYCLSANGRHTSSWLVTPKSLGNVNFSVSVEAQQSSEPCGSEVATVPETGRKDTVVKVLIVEPEGIKQEHTFNSLFCASDAEISEKMSLVLPPTVVKDSARAHFSVMGDILSSAIKNTQNLLHMPYGCGEQNMVLFAPNIYVLKYLDKTQQLTQKIKTKALGFLRAGYQRELNYKHKDGSYSAFGDQNGEREGNTWLTAFVLKSFAQARAFIFIDESHITHAFTWLSQQQKDNGCFRSSGSLFHNDIKHPVVSKALSCLESSWKTIEQGRNANFVYTKALMAYAFALAGNQDKRNEILKSLDEEAIKEDNSIHWERPQKPRKSEHNLYKPQASSVEVEMNAYVVLARLTAQPAPSPEDLTLSRSTIMWLTKQQNSNGGFSSTQDTVVALDALSKYGAVTFSRRQKTSLVTIQSTGSFSQKFQVENSNCLLLQQVPLPDIPGDYTISVSGEGCVYAQTTLRYNMHLEKQQSAFALRVQTVPLTCNNPKGHNSFQISLEISYTGSRPASNMVIADVKMLSGFIPLKPTVKKLERLEHISRTEVSNNNVLLYLDQVTNQTLAFSFIIQQDISVRNLQPAIVKVYDYYETDEVAYAEYSSPCSSDKQNV	39.165	29.607
Alpha-1-antitrypsin 1-4 (protein, UniProt Q00897 25-413, looked up) Alpha-1-antitrypsin 1-4: EDVQETDTSQKDQSPASHEIATNLGDFALRLYRELVHQSNTSNIFFSPVSIATAFAMLSLGSKGDTHTQILEGLQFNLTQTSEADIHKSFQHLLQTLNRPDSELQLSTGNGLFVNNDLKLVEKFLEEAKNHYQAEVFSVNFAESEEAKKVINDFVEKGTQGKIVEAVKKLDQDTVFALANYILFKGKWKQPFDPENTEEAEFHVDESTTVKVPMMTLSGMLDVHHCSMLSSWVLLMDYAGNTTAVFLLPDDGKMQHLEQTLNKELISQFLLNRRRSDAQIHIPRLSISGNYNLKTLMSPLGITRIFNNGADLSGITEENAPLKLSKAVHKAVLTIDETGTEAAAATVLQVATYSMPPIVRFDHPFLFIIFEEHTQSPIFVGKVVDPTHK	40.253	60.14
Vitamin K-dependent protein C (protein, UniProt P33587 42-460, looked up) Vitamin K-dependent protein C: ANSFLEEMRPGSLERECMEEICDFEEAQEIFQNVEDTLAFWIKYFDGDQCSAPPLDHQCDSPCCGHGTCIDGIGSFSCSCDKGWEGKFCQQELRFQDCRVNNGGCLHYCLEESNGRRCACAPGYELADDHMRCKSTVNFPCGKLGRWIEKKRKILKRDTDLEDELEPDPRIVNGTLTKQGDSPWQAILLDSKKKLACGGVLIHTSWVLTAAHCVEGTKKLTVRLGEYDLRRRDHWELDLDIKEILVHPNYTRSSSDNDIALLRLAQPATLSKTIVPICLPNNGLAQELTQAGQETVVTGWGYQSDRIKDGRRNRTFILTFIRIPLVARNECVEVMKNVVSENMLCAGIIGDTRDACDGDSGGPMVVFFRGTWFLVGLVSWGEGCGHTNNYGIYTKVGSYLKWIHSYIGEKGVSLKSQKL	1.0879	0
Nuclear receptor subfamily 1 group D member 2 (protein, UniProt Q60674 1-576, looked up) Nuclear receptor subfamily 1 …: MELNAGGVIAYISSSSSASSPASCHSEGSENSFQSSSSSVPSSPNSSNCDANGNPKNADISSIDGVLKSDRTDCPVKTGKTSAPGMTKSHSGMTKFSGMVLLCKVCGDVASGFHYGVHACEGCKGFFRRSIQQNIQYKKCLKNENCSIMRMNRNRCQQCRFKKCLSVGMSRDAVRFGRIPKREKQRMLIEMQSAMKTMMNTQFSGHLQNDTLAEQHDQSALPAQEQLRPKSQLEQENIKNTPSDFAKEEVIGMVTRAHKDTFLYNQEHRENSSESMPPQRGERIPRNMEQYNLNQDHRGSGIHNHFPCSERQQHLSGQYKGRNIMHYPNGHAVCIANGHCMNFSSAYTQRVCDRIPVGGCSQTENRNSYLCNTGGRMHLVCPMSKSPYVDPQKSGHEIWEEFSMSFTPAVKEVVEFAKRIPGFRDLSQHDQVNLLKAGTFEVLMVRFASLFDAKERTVTFLSGKKYSVDDLHSMGAGDLLSSMFEFSEKLNALQLSDEEMSLFTAVVLVSADRSGIENVNSVEALQETLIRALRTLIMKNHPNEASIFTKLLLKLPDLRSLNNMHSEELLAFKVHP	1.0879	0
Triosephosphate isomerase (protein, UniProt P17751 2-249, looked up) Triosephosphate isomerase: APTRKFFVGGNWKMNGRKKCLGELICTLNAANVPAGTEVVCAPPTAYIDFARQKLDPKIAVAAQNCYKVTNGAFTGEISPGMIKDLGATWVVLGHSERRHVFGESDELIGQKVSHALAEGLGVIACIGEKLDEREAGITEKVVFEQTKVIADNVKDWSKVVLAYEPVWAIGTGKTATPQQAQEVHEKLRGWLKSNVNDGVAQSTRIIYGGSVTGATCKELASQPDVDGFLVGGASLKPEFVDIINAKQ	1.0879	0.9252
Carboxypeptidase Q (protein, UniProt Q9WVJ3 43-470, looked up) Carboxypeptidase Q: DVAKAIINLAVYGKYQNRSYERLGLLVDTVGPRLSGSKNLEKAIQIMYQNLQQDGLENVHLEQVRIPHWERGEESAVMLEPRIHKMAILGLGSSIGTPPGGITAEVLVVASFDELQRRASEARGKIIVYNQPYTGYEKTVQYRVQGAVEAAKVGAVASLIQSVASFSIYSPHTGIQKYQDGVPKIPTACITVEDAEMMSRMASRGNKIVIHLEMGAKTYPDTDSFNTVAEITGSMYPEEVVLVSGHLDSWDVGQGALDDGGGAFISWEALSLVKDLGLRPKRTLRLVLWTAEEQGGIGASQYYELHKANISKYSLVMEADSGTFLPTGLQFTGSDKARAIMKEVMNLLQPLNVTKVFSNGEGTDINFWIQAGVPGASLRDDLYKYFFFHHSHGDTMTVMDPKQMNVAAAVWAVVAYVVADMDEMLPRS	1.0879	0
